Screening data, single-dose tests

From ChEMBL document CHEMBL3988442, “University of Dundee, Small-Polar-MMV Screening Library” (2021).

Mtb glucose medium: 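Whole-cell growth test on Mycobacterium tuberculosis, read after 3 days in glucose-containing 7H9 medium; the read-out is not stated. Compounds at 500 µM. Direction is inferred from retests: higher values go with more growth inhibition. Size under these conditions: about 18,000 compounds, about 1,400 of them at 50% or above in at least one test.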
Mtb cholesterol medium: 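Whole-cell growth test on Mycobacterium tuberculosis, read after 4 days in a medium based on cholesterol and the lipid DPPC; the read-out is not stated. Tested at 500 µM. Direction is inferred from retests: higher values go with more growth inhibition. Size under these conditions: about 18,000 compounds, about 900 of them at 50% or above in at least one test.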

Results are given as percent effect. How 0% and 100% were set is not recorded. Most values in the screen are low, and negative values occur. Many other results are left out here, so strong results are more common than in the screen. A dash means the value is not listed here; it may have been measured.

compound	Mtb glucose medium	Mtb cholesterol medium
Cc1ccc(NC(=O)N2CCC(O)C2)cc1OC(F)F (centres undefined)	32.68	18.81
OCC1CCN(Cc2cc(F)cc3cccnc23)CC1	-1.086	-
NCCNC(=O)CCCc1ccccc1	12.14	-4.895
CC(=O)N1CCN(Cc2cccc3c2OCCO3)CC1	13.37	-
C=C(Cl)CS(=O)(=O)N1CCC(C(=O)N(CC)CC)CC1	-0.9969	-
O=C(NCC[S+]([O-])c1ccccc1)N1CCOCC1 (centres undefined)	-	5.448
Cc1noc(CNC(CCO)C(C)C)n1 (centres undefined)	-	64.47
CNCCCC(=O)Nc1ccccc1	-	2.413
N#CC1(NC(=O)CCc2ccc(Cl)s2)CCOCC1	69.65	56.66
O[C@H]1CN(Cc2cscn2)C[C@@H]1N1CCCC1	12.18	-
CC(C)NS(=O)(=O)c1csc(C(N)=O)c1	5.018	-
CC(C)(C)C(=O)Nc1cccc(C(=O)NC2CC2)c1	12.23	-
CN(Cc1cc(Br)cs1)C(=O)c1ccn(C)c(=O)c1	-	3.302
Cc1nn(C)c(C)c1S(=O)(=O)N[C@@H]1C=C[C@H](CO)C1	6.221	-
O=C1NC[C@@H]2[C@H]1CCCN2C(=O)c1cc(C2CC2)on1	7.662	-
CSC(C)(C)CNC(=O)Nc1cc(C)on1	42.74	-
NC(=O)c1c[nH]cn1	-	-9.752
COc1cccc(OC2CN(C(=O)[C@@H](N)CO)C2)c1	2.368	-
NC1CCCN(c2ccncn2)C1 (centres undefined)	-6.875	-
CCNC(=O)C(C)NC(=O)N1CCc2ccc(Cl)cc21 (centres undefined)	5.433	-
CCOc1cccc(NC(=O)NC(C)(C)CCO)c1	37.84	-
CC1c2ccsc2CCN1C(=O)c1ccncc1 (centres undefined)	13.66	14
Cc1cc(C)n2nc(C(=O)N3CCSCC3)nc2n1	3.503	-
COc1ccc(C)cc1C(C)O (centres undefined)	4.602	-
N[C@H]1C[C@@H](c2cc(NCC3CCOCC3)ncn2)C1	-4.969	-
Cc1ccc(C(=O)N2CCN(c3nccs3)CC2)o1	75.8	81.78
CCCN(CCC(=O)NC(=O)NC)CC1CCCCO1 (centres undefined)	101.8	101
CC(C)NC(=O)N(C)Cc1cccc(C(N)=O)c1	11.11	-
c1ccc(COCc2nc(C3CCCNC3)no2)cc1 (centres undefined)	17.66	7.416
CCC1(O)CCCN(C(=O)Cc2cnccn2)C1 (centres undefined)	-3.554	-
COc1cccc(F)c1N1CCNCC1	43.84	7.133
CN(Cc1cccc(F)c1)C(=O)c1cnccn1	-	54.91
CCc1nnc(NCCCc2cccnc2)o1	-	5.54
CCc1cccc2c1OCCC2N (centres undefined)	59.64	-
CNc1ncccc1CN	-1.164	-
CC(CNC(=O)c1cn2ccccc2n1)N1CCCC1 (centres undefined)	8.527	-
Cc1ccc(CNC(=O)C2CCCCC(=O)N2)o1 (centres undefined)	14.27	-
COC(=O)N(C)CC(=O)Nc1ccc(C)cc1	24.73	-
Cc1ccncc1S(N)(=O)=O	9.524	-
O=C(NCCc1cn[nH]c1)[C@H](O)C1CCCCC1	3.676	-
CCOC(=O)c1ccc(CN2CCOCC2)cn1	-	56.84
O=C(CCc1ccoc1)Nc1cnccn1	48.76	-
Cc1cc(C(=O)NCC(O)c2ccccc2Cl)no1 (centres undefined)	57.8	-
COCC(C)(NCc1ccc(F)cc1)C(=O)OC (centres undefined)	5.572	-
Cc1nnc(CN(C)C(=O)CN(C)C2CCCC2)o1	-	-0.2334
CCOc1ccc(Cn2nc(COC)oc2=O)nc1	66.01	71.84

The first 3 entries again:

compound	Mtb glucose medium	Mtb cholesterol medium
Cc1ccc(NC(=O)N2CCC(O)C2)cc1OC(F)F (centres undefined)	32.68	18.81
OCC1CCN(Cc2cc(F)cc3cccnc23)CC1	-1.086	-
NCCNC(=O)CCCc1ccccc1	12.14	-4.895